Results of unrelated studies side by side (data: NIAID ChemDB).

All rows: tests on isolated targets; species: Hepatitis C virus

ICn is the concentration giving n% inhibition. Percent inhibition refers to the dose given; in toxicity tests it is the harm to the cells. Lines come from different laboratories, so protocols vary. Blank or dashed fields: not listed here. Two numbers with a dash give a range or band.

{"smiles": "O=C(O)c1cnn2c(C3CCCCC3)c(/C=C/c3ccccc3)cnc12", "protein": "RNA-dependent RNA polymerase", "read-out": "IC50", "value": "1–10 µM"}
{"smiles": "Cc1cccc(CN(C(=O)C2CC2)c2cc(-c3ccccc3)sc2C(=O)O)c1", "protein": "NS3 ATPase", "read-out": "IC50", "value": "5–20 µM"}
{"smiles": "O=C(Nc1ccccc1-c1nc(C(=O)O)c(O)c(=O)[nH]1)NS(=O)(=O)c1ccccc1Cl", "protein": "HCV polymerase", "read-out": "IC50", "value": "<100 µM"}
{"smiles": "Cc1cccc(C)c1N1CCN(C(=O)Nc2cc(-c3ccccc3)sc2C(=O)O)CC1", "protein": "NS3 ATPase", "read-out": "IC50", "value": ">20 µM"}
{"smiles": "O=C(O)c1ccc2c(c1)nc(-c1ccc3nc(-c4cc(-c5ccc(Cl)c(Cl)c5)no4)ccc3c1)n2C1CCCCC1", "protein": "NS5B polymerase", "read-out": "inhibition", "tested at": "33 µM", "value": "99.64%"}
{"smiles": "C=CCN(C(=O)Cc1ccc(Cl)cc1Cl)c1cc(-c2ccccc2)sc1C(=O)O", "protein": "NS3 ATPase", "read-out": "IC50", "value": "5–20 µM"}
{"smiles": "O=C(NCc1cccc(Cl)c1Cl)Nc1cscc1-c1nc(C(=O)O)c(O)c(=O)[nH]1", "protein": "HCV polymerase", "read-out": "IC50", "value": "<25 µM"}
{"smiles": "C=C(C)Cc1cc(N(C(=O)c2ccc(Cl)cc2Cl)C(C)C)c(C(=O)O)s1", "protein": "NS3 ATPase", "read-out": "IC50", "value": "<5 µM"}
{"smiles": "CCOC(=O)c1cc2nc(-c3ccc(Cl)cc3)cc(-c3ccccc3)n2n1", "protein": "RNA-dependent RNA polymerase", "read-out": "IC50", "value": ">10 µM"}
{"smiles": "O=C(Nc1cscc1-c1nc(C(=O)O)c(O)c(=O)[nH]1)OCc1ccccc1Cl", "protein": "HCV polymerase", "read-out": "IC50", "value": "<25 µM"}
{"smiles": "O=C(O)c1cc2nc(-c3ccc(Oc4ccccc4)cc3)cc(-c3ccccc3OCc3ccccc3)n2n1", "protein": "RNA-dependent RNA polymerase", "read-out": "IC50", "value": "1–10 µM"}
{"smiles": "CC(C)Cc1cc(N(Cc2ccc(Cl)cc2Cl)C(C)C)c(C(=O)O)s1", "protein": "NS3 ATPase", "read-out": "IC50", "value": "<5 µM"}
{"smiles": "Cc1cc(-c2cnc3c(C(=O)O)cnn3c2C2CCCCC2)ccc1F", "protein": "RNA-dependent RNA polymerase", "read-out": "IC50", "value": "1–10 µM"}
{"smiles": "CC(=O)N(Cc1cccc(C)c1)c1cc(-c2ccccc2)sc1C(=O)O", "protein": "NS3 ATPase", "read-out": "IC50", "value": "5–20 µM"}
{"smiles": "CNC(=O)c1ccc(-c2ccc(Cl)cc2)c(-c2ccc3cc(-c4nc5cc(C(=O)O)ccc5n4C4CCCCC4)ccc3n2)c1", "protein": "NS5B polymerase", "read-out": "inhibition", "tested at": "33 µM", "value": "100%"}
{"smiles": "O=C(O)c1cc2ncc(-c3ccc4occc4c3)c(C3CCCCC3)n2n1", "protein": "RNA-dependent RNA polymerase", "read-out": "IC50", "value": ">10 µM"}
{"smiles": "CN(C)CCOC(=O)c1nc(-c2ccccc2NS(=O)(=O)c2ccc(Cl)c(Cl)c2Cl)[nH]c(=O)c1O", "protein": "HCV polymerase", "read-out": "IC50", "value": "<50 µM"}
{"smiles": "COCCOc1ccc(-c2ccc(Cl)cc2)c(-c2ccc3cc(-c4nc5cc(C(=O)O)ccc5n4C4CCCCC4)ccc3n2)c1", "protein": "NS5B polymerase", "read-out": "inhibition", "tested at": "100 µM", "value": "95.91%"}
{"smiles": "O=C(O)c1nc(-c2sccc2CCOCc2ccccc2)[nH]c(=O)c1O", "protein": "HCV polymerase", "read-out": "IC50", "value": "<25 µM"}
{"smiles": "Cc1ccccc1S(=O)(=O)Nc1cc(-c2ccc(-c3ccc(Br)cc3)cc2)sc1C(=O)O", "protein": "NS3 ATPase", "read-out": "IC50", "value": "<5 µM"}
{"smiles": "O=C(Nc1cccc(-c2nc(C(=O)O)c(O)c(=O)[nH]2)c1)Nc1cc(C(F)(F)F)cc(C(F)(F)F)c1", "protein": "HCV polymerase", "read-out": "IC50", "value": "<100 µM"}
{"smiles": "O=C(O)c1ccc2c(c1)nc(-c1ccc3ncc(-c4ccccc4)cc3c1)n2C1CCCCC1", "protein": "NS5B polymerase", "read-out": "inhibition", "tested at": "100 µM", "value": "96.87%"}
{"smiles": "O=C(O)c1nc(-c2ccccc2NS(=O)(=O)c2ccc(Cc3ncc(C(F)(F)F)cc3Cl)cc2)[nH]c(=O)c1O", "protein": "HCV polymerase", "read-out": "IC50", "value": "<100 µM"}
{"smiles": "NC(=O)c1cc(-c2ccc3cc(-c4nc5cc(C(=O)O)ccc5n4C4CCCCC4)ccc3n2)ccc1O", "protein": "NS5B polymerase", "read-out": "inhibition", "tested at": "100 µM", "value": "98.32%"}
{"smiles": "Cc1c(Cl)cccc1S(=O)(=O)NC(=O)Nc1cscc1-c1nc(C(=O)O)c(O)c(=O)[nH]1", "protein": "HCV polymerase", "read-out": "IC50", "value": "<25 µM"}
{"smiles": "CCCC(=O)N(Cc1cccc(C)c1)c1cc(-c2ccccc2)sc1C(=O)O", "protein": "NS3 ATPase", "read-out": "IC50", "value": "5–20 µM"}

Repeating the first 3 entries:

smiles | protein | read-out | tested at | value
O=C(O)c1cnn2c(C3CCCCC3)c(/C=C/c3ccccc3)cnc12 | RNA-dependent RNA polymerase | IC50 |  | 1–10 µM
Cc1cccc(CN(C(=O)C2CC2)c2cc(-c3ccccc3)sc2C(=O)O)c1 | NS3 ATPase | IC50 |  | 5–20 µM
O=C(Nc1ccccc1-c1nc(C(=O)O)c(O)c(=O)[nH]1)NS(=O)(=O)c1ccccc1Cl | HCV polymerase | IC50 |  | <100 µM